Compound potency records, mixed from different reports. Data source: NIAID ChemDB in PubChem.

Common to all: enzyme or target tests; species: Candida albicans

ICn is the concentration giving n% inhibition. Blank or dashed fields: not listed here. Lines come from different laboratories, so protocols vary.

smiles	strain	protein	read-out	result
COC(=O)/C=C/C(=O)CC[C@H](N)C(N)=O.Cl	ATCC 10231	Glucosamine-6-phosphate synthase	IC50	80.7 µg/mL
O=C(O)c1ccccc1	Nce103	Beta-carbonic anhydrase	Ki	24.4 µM
CN(C)Cc1ccc(C2CCC(N(C)C(=O)c3ccc(Cl)cc3)CC2)cc1	-	Oxidosqualene cyclase	IC50	0.1 µM
CCOC(=O)c1oc2cccc(OCCCN3CCCCC3)c2c1C	CY1002	N-myristoyltransferase	IC50	4.1 µM
Cc1cccc(C)c1OCC(=O)N[C@@H](Cc1ccccc1)C[C@@H](O)[C@H](Cc1ccccc1)NC(=O)COc1c(C)cccc1C	H12	Aspartic protease SAP2	IC50	>50 µM
O=C(NCCNCc1ccc2ccccc2c1)c1cccc2nc(NC(=O)C3CCCCC3)sc12	-	N-myristoyltransferase	IC50	1 µM
CC(C)=CCc1ccc(O)c2oc3cc(O)cc(O)c3c(=O)c12	-	Aspartic protease	IC50	25 µg/mL
CCN(CC)CCOC(=O)c1ccc2nc(NC(=O)C3CCCCC3)sc2c1	-	N-myristoyltransferase	IC50	1.5 µM
Cc1cc2c3c(N)nc(N)nc3ccc2n1C	-	Dihydrofolate reductase	Ki	0.000087 µM
O=C(COc1ccccc1)N[C@@H](Cc1ccccc1)C[C@@H](O)[C@H](Cc1ccccc1)NC(=O)COc1ccccc1	H12	Aspartic protease SAP2	IC50	>50 µM
Cc1cccc(C)c1OCC(=O)N[C@@H](Cc1ccccc1)C[C@@H](O)[C@H](Cc1ccccc1)NC(=O)[C@H](NC(=O)c1cc(=O)c2ccccc2[nH]1)[C@H](C)O	-	Secreted aspartic protease	IC50	120 µM
CCOc1c(Cl)cc2nc(S(N)(=O)=O)sc2c1Cl	-	Farnesyl-protein transferase	IC50	>100 µM
CCCCC/C=C\C/C=C/CC/C=C/[C@H]1C[C@H]([C@](O)(CC(=O)O[C@@H](C(=O)O)[C@H](CC(=O)O)C(=O)O)C(=O)O)C(=O)O1	-	Geranylgeranyltransferase I	IC50	5 µM
Cc1cccc(C)c1OCC(=O)N[C@@H](Cc1ccccc1)C[C@H](O)[C@H](Cc1ccccc1)NC(=O)[C@H](NC(=O)c1cc(=O)c2ccccc2[nH]1)C(C)C	-	Secreted aspartic protease	IC50	140 µM
Cc1cccc(C)c1OCC(=O)N[C@@H](Cc1ccccc1)C[C@H](O)[C@H](Cc1ccccc1)NC(=O)[C@H](NC(=O)c1cc(=O)c2ccccc2[nH]1)C(C)C	H12	Aspartic protease SAP2	IC50	>50 µM
CC(C)=CCC/C(C)=C/Cc1c(O)cc(O)c(C(=O)c2ccccc2)c1O	-	Aspartic protease	IC50	40 µg/mL
CC(=O)[O-].CC(N)C[NH2+]C(C(=O)O)[C@H]1O[C@@H](n2ccc(=O)[nH]c2=O)[C@H](O)[C@@H]1O	-	Chitin synthase	IC50	>100 µM
O=C(Nc1nc2ccc(NC(=O)[C@H]3CC[C@@H](NCc4ccc5ccccc5c4)C3)cc2s1)C1CCCC1	-	N-myristoyltransferase	IC50	0.015 µM
NC(=O)[C@@H](Cc1cnc[nH]1)NC(=O)[C@@H](Cc1cccc2ccccc12)NC(=O)C1c2ccccc2-c2ccccc21	-	Geranylgeranyltransferase	IC50	<3 µM
Cc1cccc(C)c1OCC(=O)N[C@@H](Cc1ccccc1)C[C@@H](O)[C@H](Cc1ccccc1)NC(=O)[C@@H](NC(=O)c1cc(=O)c2ccccc2[nH]1)c1cccs1	H12	Aspartic protease SAP2	IC50	80 µM
CC(C)(C)OC(=O)N[C@@H](Cc1ccccc1)[C@H](O)C[C@@H](Cc1ccccc1)C(=O)N[C@@H](CCC(=O)O)C(=O)N[C@@H](Cc1ccccc1)C(N)=O	-	Aspartic proteinase	IC50	>100 µM
COc1ccc2nc(NC(=O)C(=O)C(C(=O)c3ccc(-c4ccccc4)cc3)C3OC(=O)c4ccccc43)sc2c1	-	Geranylgeranyl-protein transferase I	IC50	0.07 µM
CC(C)(C)OC(=O)N[C@@H](Cc1ccccc1)[C@H](O)C[C@@H](Cc1ccccc1)C(=O)N[C@@H](CCC(N)=O)C(=O)N[C@@H](Cc1ccccc1)C(N)=O	-	Aspartic proteinase	IC50	>100 µM
Nc1ncc(OCCc2cccc3ccccc23)c(N)n1	-	Dihydrofolate reductase	IC50	0.431 µM
NC(=O)NCCC[C@H](N)C(=O)N[C@@H](C(=O)O)[C@H]1O[C@@H](n2ccc(=O)[nH]c2=O)[C@H](O)[C@@H]1O	-	Chitin synthase	IC50	>100 µM
Cc1cc(Cl)c2nc(-c3ccc(Br)cc3)cc(C(=O)O)c2c1	-	Prolyl-tRNA synthetase	IC50	0.22 µM
C=C1/C=C(\C)[C@H](CC)OC(=O)[C@H](C)C(=O)C(O)(CO)C/C(OC)=C/[C@@H](C)C1	-	Inositol phosphorylceramide synthase	IC50	0.00007 µM
Cc1cccc(C)c1OCC(=O)N[C@@H](Cc1ccccc1)C[C@@H](O)[C@H](Cc1ccccc1)NC(=O)[C@H](NC(=O)c1cc(=O)c2ccccc2[nH]1)[C@H](C)O	H12	Aspartic protease SAP2	IC50	120 µM
CCCC(N)C(=O)NC(CNC(=O)/C=C/C(=O)OC)C(=O)O	-	Glucosamine-6-phosphate synthetase	IC50	241 µM
O=C(CCNCc1ccc2ccccc2c1)Nc1ccc2nc(NC(=O)C3CCCCC3)sc2c1	-	N-myristoyltransferase	IC50	0.18 µM
Nc1ncc(CCc2ccccc2)c(N)n1	-	Dihydrofolate reductase	IC50	3.369 µM
O=C(NCCNCc1ccc2ccccc2c1)c1ccc2oc(NC(=O)C3CCCCC3)nc2c1	-	N-myristoyltransferase	IC50	1.1 µM
CC(C)(C)OC(=O)N[C@@H](Cc1ccccc1)[C@@H](O)C[C@H](Cc1ccccc1)C(=O)N[C@@H](CCC(N)=O)C(=O)N[C@@H](Cc1ccccc1)C(N)=O	-	Aspartic proteinase	IC50	>100 µM
CCC(C)CC(C)CCCCCCCCC(=O)N[C@H]1C[C@@H](O)[C@@H](O)NC(=O)[C@@H]2[C@@H](O)CCN2C(=O)[C@H]([C@H](O)CCNC(C)=O)NC(=O)[C@H]([C@H](O)Cc2ccc(O)cc2)NC(=O)[C@@H]2C[C@@H](O)CN2C(=O)[C@H]([C@@H](C)O)NC1=O	MY1055	Glucan synthase	IC50	0.3 µM
CN(C)C(=O)c1ccc2nc(NC(=O)[C@@H]3CCC[C@H](NCc4ccc5ccccc5c4)C3)sc2c1	-	N-myristoyltransferase	IC50	0.086 µM
COc1ccc(C2CC(c3cc4ccccc4o3)=NN2c2ccc([N+](=O)[O-])cc2)cc1	-	Farnesyl-protein transferase	IC50	0.84 µM
CC(=CCC/C=C(\C)CCC=C(C)CCC[N+](C)(C)[O-])CC/C=C(\C)CCC1OC1(C)C	-	Oxidosqualene cyclase (microsomal)	IC50	19 µM
CC(C)(C)OC(=O)N[C@@H](Cc1ccccc1)[C@@H](O)C[C@@H](Cc1ccccc1)C(=O)N[C@@H](CCC(N)=O)C(=O)N[C@@H](Cc1ccccc1)C(N)=O	-	Aspartic proteinase	IC50	>100 µM
Nc1ncc(OCCc2ccc(OCc3ccccc3)cc2)c(N)n1	-	Dihydrofolate reductase	IC50	26.07 µM
N[C@@H](Cc1cccc(F)c1)C(=O)N[C@H](C(=O)O)[C@H]1O[C@@H](n2ccc(=O)[nH]c2=O)[C@H](O)[C@@H]1O	H317	Chitin synthase	IC50	2 µg/mL
CCC(C)CC(C)CCCCCCCCC(=O)N[C@H]1C[C@@H](O)[C@@H](O)NC(=O)[C@@H]2[C@@H](O)CCN2C(=O)[C@H]([C@H](O)CCN(CC#N)CC#N)NC(=O)[C@H]([C@H](O)Cc2ccc(O)cc2)NC(=O)[C@@H]2C[C@@H](O)CN2C(=O)[C@H]([C@@H](C)O)NC1=O	MY1055	Glucan synthase	IC50	>0.2 µM

Repeating the first 4 entries:

smiles,strain,protein,read-out,result
COC(=O)/C=C/C(=O)CC[C@H](N)C(N)=O.Cl,ATCC 10231,Glucosamine-6-phosphate synthase,IC50,80.7 µg/mL
O=C(O)c1ccccc1,Nce103,Beta-carbonic anhydrase,Ki,24.4 µM
CN(C)Cc1ccc(C2CCC(N(C)C(=O)c3ccc(Cl)cc3)CC2)cc1,-,Oxidosqualene cyclase,IC50,0.1 µM
CCOC(=O)c1oc2cccc(OCCCN3CCCCC3)c2c1C,CY1002,N-myristoyltransferase,IC50,4.1 µM